Data as given in article PMC5290737, “Surface mediated cooperative interactions of drugs enhance mechanical forces for antibiotic action” (Scientific Reports, 2017).

Test system: vancomycin-susceptible receptor (VSR)
Assay: Cantilever surface stress assay, antibiotic binding to surface-bound VSR
Settings: equation (2)
Excerpt: To probe different pathways of signal-transduction central to the efficacy of recognition mechanisms and therapeutic agents, we used cantilever force-based technology. Because of its nanometre strain sensitivity, this technology can directly measure the smallest changes in mechanical strain caused by specific antibiotic binding. The principles of force transduction and measurements are well established[18][19][20] and many studies focused on cantilever sensors have been published. Unlike conventional methods such as 1H–NMR spectroscopy, enzyme-linked immunosorbent assays (ELISA)[29] or surface plasmon resonance (SPR)[30] which measure optical signatures of chemical binding, cantilever technology has the capacity to resolve forces at the level of individual hydrogen bonds, making it uniquely suited to provide important insight into force transduction mechanisms, such as cell wall strain in response to antibiotic binding. […]
Here, Ksurf is raised to the power n to ensure that it maintains the dimension of concentration as n varies. […] The calculated Ksurf for Ori binding to VSR is 40 ± 10 nM, which is 25 times stronger than for Van where Ksurf is 1.0 ± 0.3 μM. […]

ristomycin
Hill coeff. (n): 0.6 ± 0.3
